# Assay results taken from USRE49816E1, “Dipeptides as inhibitors of human immunoproteasomes” (CORNELL UNIVERSITY, priority 2014, dated 2024).
# Chains of the proteins cited; added tags and fusions are not shown. Residues count along the entry.
# UniProt P9WHT9, 58-291 limits assumed: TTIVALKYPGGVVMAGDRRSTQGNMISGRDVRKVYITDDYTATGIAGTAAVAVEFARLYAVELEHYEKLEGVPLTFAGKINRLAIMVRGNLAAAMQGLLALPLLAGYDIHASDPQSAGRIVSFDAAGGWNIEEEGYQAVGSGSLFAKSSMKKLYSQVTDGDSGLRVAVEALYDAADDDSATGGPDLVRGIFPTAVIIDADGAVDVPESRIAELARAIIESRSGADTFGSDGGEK
# UniProt P9WHU1, whole entry partner: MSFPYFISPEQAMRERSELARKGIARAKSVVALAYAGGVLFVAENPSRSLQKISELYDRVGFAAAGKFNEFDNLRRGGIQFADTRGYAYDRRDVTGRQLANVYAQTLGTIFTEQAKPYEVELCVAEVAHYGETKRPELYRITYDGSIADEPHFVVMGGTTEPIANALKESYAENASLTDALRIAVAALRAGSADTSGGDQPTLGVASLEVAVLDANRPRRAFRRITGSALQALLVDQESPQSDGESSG
# Target: Mtb20S (Mycobacterium tuberculosis, UniProt P9WHT9)
# Experiment: Dipeptide boronates IC50 vs Mtb20S
# Settings: read-out: IC50 Mtb20S
compound,measurement,value
CC(=O)N[C@@H](Cc1ccccc1)C(=O)NC(Cc1cccc2ccccc12)B(O)O (stereo partly shown),IC50,100 nM
